A mixed list of measured activities; the numbers were collected in NIAID ChemDB.

Shared fields: whole-cell or culture tests; organism: Mycobacterium tuberculosis

Lines come from different laboratories, so protocols vary.

smiles | changes | read-out | tested at | strain or isolate | conditions | read by | value
CN[C@@H]1[C@H](O[C@H]2[C@H](O[C@H]3[C@H](O)[C@@H](O)[C@H](N=C(N)N)[C@@H](O)[C@@H]3N=C(N)N)O[C@@H](C)[C@]2(O)C=O)O[C@@H](CO)[C@H](O)[C@H]1O |  | MIC |  | Isolate 3 |  |  | 4 µg/mL
CNC(=O)CSc1nc(N)c2c3c(sc2n1)CC(C(C)(C)C)CC3 |  | MIC |  | H37Rv |  | MTT / visual reading | >200 µg/mL
C[C@H]1COc2c(N3CCN(C)CC3)c(F)cc3c(=O)c(C(=O)O)cn1c23 |  | MIC50 |  |  |  |  | 0.5–4 µg/mL
CC(=O)Oc1cc(S(=O)(=O)Nc2n[nH]c(Nc3ccc(C)cc3)n2)c(S)cc1Cl |  | inhibition | 12.5 µg/mL | H37Rv |  | BACTEC | 17%
C=CCOc1ccc(/C=C2/NC(=S)NC2=O)cc1 |  | inhibition | 6.25 µg/mL | H37Rv |  | BACTEC | 93%
CO/C(C)=C1/NC(=O)[C@H]([C@@H](C)O)NC(=O)c2csc(n2)-c2cc(O)c(-c3nc(C(=O)NCCCN4CCOCC4)cs3)nc2-c2csc(n2)[C@@H]2COC(=O)c3c4c5c(cccc5n3O)COC(=O)[C@@H](O[C@H]3C[C@](C)(O)[C@H](N(C)C)[C@H](C)O3)[C@@H](OC4)[C@H](NC(=O)c3csc1n3)c1nc(cs1)C(=O)N2 |  | MIC |  | Clinical isolate 16116 |  | broth dilution | ≤2.5 µM
NNC(=O)c1ccncc1 |  | MIC |  | Clinical isolate 10 |  |  | 0.1 µg/mL
NNC(=O)c1ccncc1 | Rifampicin- and isoniazid-resistant | MIC |  | Clinical isolate 565 |  | broth dilution | ≥10 µM
NC[C@@H]1O[C@H](O[C@H]2[C@@H](O)[C@H](O[C@@H]3[C@@H](O)[C@H](N)C[C@H](N)[C@H]3O[C@H]3O[C@H](CO)[C@@H](O)[C@H](O)[C@H]3N)O[C@@H]2CO)[C@H](N)[C@@H](O)[C@@H]1O |  | MIC |  | MTB9 (RIF-R) |  |  | 0.75 µg/mL
CC1=CC[C@]2(C)CC(=O)[C@]3(C)C(=O)C=C(C(C)C)[C@@H]3[C@H]2CC1 |  | inhibition | 6.25 µg/mL | H37Rv |  | resazurin | 9%
CO[C@H]1/C=C/O[C@@]2(C)Oc3c(C)c(O)c4c(O)c(c(/C=N/N5CCN(C)CC5)c(O)c4c3C2=O)NC(=O)/C(C)=C\C=C\[C@H](C)[C@H](O)[C@@H](C)[C@@H](O)[C@@H](C)[C@H](OC(C)=O)[C@@H]1C |  | MIC |  | Clinical isolate 6 |  |  | 0.1 µg/mL
CCOC(=O)c1cnccn1 | Pyrazinamide-resistant | MIC90 |  |  | pH 6.0 | resazurin | >657 µM
C[N+](C)(C)CC(=O)N/N=C/c1oc(-c2c(O)ccc3ccccc23)c(-c2c(O)ccc3ccccc23)c1[N+](=O)[O-].[Cl-] |  | MIC bound |  | H37Rv |  | BACTEC | >12.5 µg/mL
Cc1ccc(/C=C(\C(N)=S)c2nc3ncccc3[nH]2)c(C)c1 |  | MIC |  | 193 |  |  | 7.8 µg/mL
O=C1C2C3C=CC(O3)C2C(=O)N1CCN1CCCCC1 |  | inhibition | 12.5 µg/mL | H37Rv |  | BACTEC | -3%
Nc1ncc(F)c2c1ncn2[C@@H]1O[C@H](CO)[C@@H](O)[C@H]1O |  | MIC |  | H37Ra |  |  | 10–100 µg/mL
O=C1NC(=S)N/C1=C/c1ccc(C(F)(F)F)cc1 |  | EC50 |  | H37Rv |  | BACTEC | <6.25 µg/mL
CO/C(C)=C1/NC(=O)[C@H]([C@@H](C)O)NC(=O)c2csc(n2)-c2cc(O)c(-c3nc(C(=O)NCc4cnn(C)c4)cs3)nc2-c2csc(n2)[C@@H]2COC(=O)c3c4c5c(cccc5n3O)COC(=O)[C@@H](O[C@H]3C[C@](C)(O)[C@H](N(C)C)[C@H](C)O3)[C@@H](OC4)[C@H](NC(=O)c3csc1n3)c1nc(cs1)C(=O)N2 | Multidrug-resistant | MIC |  | Clinical isolate 565 |  | broth dilution | ≤10 µM
CC(/C(N)=N/O)c1nc2ncccc2[nH]1 |  | MIC |  | 109 |  |  | 500 µg/mL
CCN(CC)CCNc1ccc2nc(C)n3c4ccc(O)cc4c(=O)c1c23.Cl |  | inhibition | 12.5 µg/mL | H37Rv |  | BACTEC | 98%
Nc1nc(F)c(F)c2c1ncn2[C@@H]1O[C@H](CO)[C@@H](O)[C@H]1O |  | MIC |  | H37Ra |  |  | 10–100 µg/mL
CO[C@@H]1C[C@@H](C[C@H]2CC[C@H](C)[C@H]([C@@H](C)C(=O)O)O2)O[C@]2(O[C@](C)([C@H]3CC[C@@](C)([C@@H]4O[C@@H]([C@H]5O[C@@](O)(CO)[C@H](C)C[C@@H]5C)C[C@@H]4C)O3)C[C@H]2C)[C@@H]1C |  | MIC |  | EMB-R |  |  | 3.1 µg/mL
Cn1cccc2nc(CC(=O)NN)nc1-2 |  | MIC |  | 193 |  |  | 250 µg/mL
COc1cc(-c2ccc(N=Nc3ccc4c(S(=O)(=O)O)cc(S(=O)(=O)O)c(N)c4c3O)c(OC)c2)ccc1N=Nc1ccc2c(S(=O)(=O)O)cc(S(=O)(=O)O)c(N)c2c1O |  | inhibition | 12.5 µg/mL | H37Rv |  | BACTEC | 0%
O=C(OCCCOC(=O)c1cnccn1)c1cnccn1 | Pyrazinamide-resistant | MIC90 |  |  | pH 6.0 | resazurin | >347 µM
CCOC(=O)C(C)(C)Sc1nc(N)c2c3c(sc2n1)CC(C(C)(C)C)CC3 |  | MIC |  | H37Rv |  | MTT / visual reading | >200 µg/mL
Nc1ccc2cc(-n3nncc3COc3nc(-c4ccccn4)sc3C(=O)O)c(=O)oc2c1 |  | MIC |  | H37Rv |  | resazurin | 13.5 µM
CCCCOC(=O)CSc1nc(N)c2c3c(sc2n1)CC(C(C)(C)C)CC3 |  | MIC |  | H37Rv |  | MTT / visual reading | 1.5 µg/mL
CCN(CC)c1ccc(N=C2C=C(Cl)C(=O)c3ncccc32)c(C)c1 |  | inhibition | 12.5 µg/mL | H37Rv |  | BACTEC | 99%
COC(=O)c1cnccn1 | Pyrazinamide-resistant | MIC90 |  |  | pH 6.6 | resazurin | >724 µM
N[C@@H]1CN(c2c(F)cc3c(=O)c(C(=O)O)cn([C@@H]4C[C@@H]4F)c3c2Cl)CC12CC2 |  | MIC50 |  |  |  |  | 0.12–1 µg/mL
CN[C@@H]1[C@H](O[C@H]2[C@H](O[C@H]3[C@H](O)[C@@H](O)[C@H](N=C(N)N)[C@@H](O)[C@@H]3N=C(N)N)O[C@@H](C)[C@]2(O)C=O)O[C@@H](CO)[C@H](O)[C@H]1O |  | MIC |  | MTB14 (S) |  |  | 0.3 µg/mL
COC(=O)c1sc(-c2cccnc2)nc1OCc1cnnn1-c1cc2ccc(N)cc2oc1=O |  | MIC |  | H37Rv |  | resazurin | 13.12 µM
CC1CC(=O)NC1C(=O)O |  | inhibition | 12.5 µg/mL | H37Rv |  | BACTEC | 17%
CCCOc1ccc(/C=C2/NC(=S)NC2=O)cc1 |  | EC50 |  | H37Rv |  | BACTEC | <6.25 µg/mL
S=c1[nH]c2cc(Cl)c(Cl)cc2[nH]1 |  | MIC bound |  | H37Rv |  | BACTEC | >6.25 µg/mL
CO[C@H]1/C=C/O[C@@]2(C)Oc3c(C)c(O)c4c(O)c(c(/C=N/N5CCN(C)CC5)c(O)c4c3C2=O)NC(=O)/C(C)=C\C=C\[C@H](C)[C@H](O)[C@@H](C)[C@@H](O)[C@@H](C)[C@H](OC(C)=O)[C@@H]1C |  | MIC |  | Clinical isolate 11677 |  | broth dilution | ≤0.1 µM
CN[C@@H]1[C@H](O[C@H]2[C@H](O[C@H]3[C@H](O)[C@@H](O)[C@H](N=C(N)N)[C@@H](O)[C@@H]3N=C(N)N)O[C@@H](C)[C@]2(O)C=O)O[C@@H](CO)[C@H](O)[C@H]1O |  | MIC |  | Clinical isolate 12 |  |  | 50 µg/mL
CC1=C2C3B(OCCOC3C=C1)O[C@@H]2CN |  | MIC |  | H37Rv |  | resazurin / fluorescence | >600 µM
NC[C@H]1O[C@H](O[C@H]2[C@H](O)[C@@H](O[C@H]3O[C@H](CO)[C@@H](O)[C@H](N)[C@H]3O)[C@H](N)C[C@@H]2N)[C@H](O)[C@@H](O)[C@@H]1O |  | MIC |  | Isolate 11 |  |  | 4 µg/mL
Nc1ccc2cc(-n3nncc3COc3nc(-c4ccncc4)sc3C(=O)O)c(=O)oc2c1 |  | MIC |  | H37Rv |  | resazurin | 13.51 µM
Nc1nccc2c1ncn2[C@@H]1O[C@H](CO)[C@@H](O)[C@H]1O |  | MIC |  | H37Ra |  |  | >100 µg/mL
C[C@@H]1CN(c2c(F)c(N)c3c(=O)c(C(=O)O)cn(C4CC4)c3c2F)C[C@H](C)N1 |  | MIC90 |  |  |  |  | 0.25–0.5 µg/mL
COc1ccc(S(=O)(=O)[O-])cc1N=N/C(=N\Nc1cc(S(=O)(=O)[O-])ccc1OC)C(=O)Nc1ccccc1.[Na+].[Na+] |  | inhibition | 12.5 µg/mL | H37Rv |  | BACTEC | 0%
COc1ccc(/C=C2/NC(=S)NC2=O)c(OC)c1 |  | EC50 |  | H37Rv |  | BACTEC | <6.25 µg/mL
CC[C@H](CC[C@@H](C)[C@H]1CC[C@H]2[C@@H]3CC=C4C[C@@H](O)CC[C@]4(C)[C@H]3CC[C@]12C)C(C)C |  | inhibition | 128 µg/mL | H37Rv |  | BACTEC | 98%
CCOc1ccc2cc(-n3nncc3COc3nc(-c4cccnc4)sc3C=O)c(=O)oc2c1 |  | MIC |  | H37Rv |  | resazurin | 26.29 µM
CCCCCCOC(=O)c1cnccn1 | Pyrazinamide-resistant | MIC90 |  |  | pH 6.6 | resazurin | >480 µM
CC1COc2c(N3CCN(C)CC3)c(F)cc3c(=O)c(C(=O)O)cn1c23 |  | MIC50 |  |  |  |  | 1 µg/mL
COC1=CCC2=C(CCC3C2CCP3(C)=S)C1 |  | MIC bound |  | H37Rv |  | resazurin | >6.25 µg/mL
C=C(NC(=O)c1csc(-c2nc3c(cc2O)-c2nc(cs2)C(=O)N[C@@H]([C@@H](C)O)C(=O)N/C(=C(\C)OC)c2nc(cs2)C(=O)N[C@@H]2c4nc(cs4)C(=O)N[C@@H](COC(=O)c4c5c6c(cccc6n4O)COC(=O)[C@@H](O[C@H]4C[C@](C)(O)[C@H](N(C)C)[C@H](C)O4)[C@H]2OC5)c2nc-3cs2)n1)C(N)=O | Isoniazid-resistant | MIC |  | Clinical isolate 9139 |  | broth dilution | <2.5 µM
CN(C)CCNc1ccc(N)c2sc3ccccc3c(=O)c12 |  | MIC bound |  | H37Rv |  | BACTEC | >12.5 µg/mL
Nc1ccc2cc(-n3nncc3COc3nc(-c4ccccn4)sc3C=O)c(=O)oc2c1 |  | MIC |  | H37Rv |  | resazurin | 7 µM
CCOc1ccc(/C=C2/NC(=S)NC2=O)cc1 |  | inhibition | 6.25 µg/mL | H37Rv |  | BACTEC | 87%
C[C@@H]1CN(c2c(F)c(N)c3c(=O)c(C(=O)O)cn(C4CC4)c3c2F)C[C@H](C)N1 |  | MIC |  | Isolate 17 |  |  | 0.13 µg/mL
Cn1cccc2nc(C/C(N)=N/O)nc1-2 |  | MIC |  | H37Rv |  |  | 500 µg/mL
CC(=C\c1ccccc1)/C=C1/NC(=S)NC1=O |  | EC50 |  | H37Rv |  | BACTEC | <6.25 µg/mL
Cc1cc(S(=O)(=O)Nc2nc(N)n(-c3ccccn3)n2)c(S)cc1Cl |  | MIC bound |  | H37Rv |  | BACTEC | >12.5 µg/mL
CCOC(=O)C(Sc1nc(N)c2c3c(sc2n1)CC(C(C)(C)C)CC3)C(C)C |  | MIC |  | H37Rv |  | MTT / visual reading | 200 µg/mL
CC(=O)Nn1cnc2[nH]ncc2c1=O |  | inhibition | 12.5 µg/mL | H37Rv |  | BACTEC | 26%
CC(=O)NC[C@H]1CN(c2ccc(N3CCN(Cc4ccc([N+](=O)[O-])o4)CC3)c(F)c2)C(=O)O1 |  | MIC50 |  | 16 isolates (MDR) |  |  | 4 µg/mL
COc1ccc(Cl)c(-c2cc(OC)c(N=N/C(=N\Nc3ccc([N+](=O)[O-])cc3)c3ccc([N+](=O)[O-])cc3)cc2Cl)c1 |  | inhibition | 12.5 µg/mL | H37Rv |  | BACTEC | 51%
O=C1NC(=S)N/C1=C/c1ccccc1Br |  | EC50 |  | H37Rv |  | BACTEC | >6.25 µg/mL
CCOc1ccc(C2=NN(CC)C(=O)C(C3C(=O)N(c4ccccc4)N=C3C)C2)cc1 |  | inhibition | 6.25 µg/mL | H37Rv |  | resazurin | 10%
COc1cccc(/C=C2/NC(=S)NC2=O)c1OC |  | inhibition | 6.25 µg/mL | H37Rv |  | BACTEC | 0%
CCOC(=O)c1csc(-c2ccc(COC(=O)c3ccccc3)o2)n1 |  | inhibition | 12.5 µg/mL | H37Rv |  | BACTEC | 13%
O=C1NC(=S)N/C1=C\c1cccc([N+](=O)[O-])c1 |  | EC50 |  | H37Rv |  | BACTEC | >6.25 µg/mL
COc1cc(C(C2=C(O)c3ccccc3C(=O)C2=O)C2=C(O)c3ccccc3C(=O)C2=O)cc(Br)c1O |  | inhibition | 12.8 µg/mL | H37Rv |  | BACTEC | 13%
CC1=CC[C@]2(C)C[C@H](O)[C@@]3(C)[C@H](C(C(C)C)=C[C@@H]3O)[C@H]2CC1 |  | EC50 |  | H37Rv |  | resazurin | >6.25 µg/mL
CCCCCCCC/C=C\CCCCCCCCOCC(O)CO |  | MIC |  | H37Rv |  | BACTEC | 64 µg/mL
COC(=O)c1sc(-c2ccncc2)nc1OCc1cnnn1-c1cc2ccc(O)cc2oc1=O |  | MIC |  | H37Rv |  | resazurin | 26.18 µM

Two numbers with a dash give a range or band. Blank or dashed fields: not listed here. ECn: concentration that inhibits the pathogen or its effect by n%. MIC bound comes from a single tested concentration. Inhibition is in % at the dose shown (toxicity tests: loss of growth or viability). MIC50, MIC90 and the like: level of inhibition, or share of isolates inhibited.